Measured values from several laboratories, pooled; numbers as filed in NIAID ChemDB.

All rows: whole-cell or culture tests; agent: Candida albicans; endpoint: MIC

Conditions beyond the fields shown may differ between rows.

compound	strain	read by	value
O=C(Nc1nc2ccc(NC(=O)[C@@H]3CCC[C@@H](NCc4ccc(-c5ccccc5)cc4)C3)cc2s1)C1CCCC1	-	-	>12.5 µM
COC(=O)Nc1ccc2c(c1)nc(-c1ccccc1)n2[O-]	-	broth dilution	100 µg/mL
O=C(CCNCc1ccc(-c2ccccc2)cc1)Nc1ccc2nc(NC(=O)C3CCCC3)sc2c1	-	-	6.25 µM
COC(=O)C(C#N)C1C(=O)C(C)=C(C)C(=O)C1Sc1ccc(C)cc1	Berkout KCCM 50235	-	>50 µg/mL
Nn1c(SCC(O)(Cn2cncn2)c2ccc(F)cc2F)nnc1-c1ccncc1	IRFC 192	broth dilution	>64 µg/mL
N#CC(=C1SCCCS1)n1ccnc1	-	-	100 µg/mL
Cc1ccc(-c2nn(-c3ccccc3)cc2/C=N/n2cnc3c(sc(=S)n3-c3ccccc3)c2=O)cc1	-	-	>200 µg/mL
CC1=C(C)CN(c2ccc(NC(=O)OCc3ccccc3)cc2)OC1	-	broth dilution	200 µg/mL
CC1=C(C)C(=O)C(Cl)=C(Cl)C1=O	Berkout KCCM 50235	-	50 µg/mL
Cc1ccc(-c2nn(-c3ccccc3)cc2/C=N/NC(=O)c2sc(=S)n(-c3ccccc3)c2N)cc1	-	-	>200 µg/mL
NC(=NC1CCCC1)c1ccc(-c2ccc(-c3ccc(C(N)=NC4CCCC4)cc3)o2)cc1	Isolate 1866	-	12.5 µg/mL
C[C@H](n1cnnn1)[C@@](O)(Cn1cncn1)c1ccc(F)cc1F	TA	-	>100 µg/mL
COC(=O)Nc1cccc(OCC2CC(c3ccc([N+](=O)[O-])cc3)=NO2)c1	-	broth dilution	320 µg/mL
Nn1c(SCC(O)(Cn2cncn2)c2ccc(F)cc2F)nnc1-c1ccc(Cl)cc1	IRFC 36	broth dilution	>64 µg/mL
CCCC(Cn1ccnc1)c1ccc(Cl)cc1Cl	-	-	>100 µg/mL
CC(C)C(=O)Nc1nc2ccc(NC(=O)[C@@H]3CCC[C@@H](NCc4ccc5ccccc5c4)C3)cc2s1	-	-	3.13 µM
CCCC(Cn1ccnc1)c1ccccc1Cl	-	-	>100 µg/mL
Nn1c(SCC(O)(Cn2cncn2)c2ccc(Cl)cc2Cl)nnc1-c1ccncc1	PTCC 6027	broth dilution	>64 µg/mL
CCCOC[n+]1cccc(NCn2nnc3ccccc32)c1	ATCC 10231	-	>1499 µM
C[C@H](n1ccnn1)[C@@](O)(Cn1cncn1)c1ccc(F)cc1F	TA	-	>100 µg/mL
Cc1ccc(-c2nn(-c3ccccc3)cc2/C=N/N=c2\sc3c(=O)[nH]cnc3n2-c2ccccc2)cc1	-	-	>200 µg/mL
Nn1c(SCC(O)(Cn2cncn2)c2ccc(F)cc2F)nnc1-c1ccc(Cl)cc1Cl	PTCC 6027	broth dilution	16 µg/mL
O=C(Nc1nc2ccc(NC(=O)[C@H]3CC[C@@H](NCc4ccc5ccccc5c4)C3)cc2s1)C1CCCC1	-	-	>12.5 µM
C[C@@H](n1ccnn1)[C@@](O)(Cn1cncn1)c1ccccc1F	IFO 0583	-	50 µg/mL
COC(=O)Nc1ccc(NC(=O)OCc2cc(-c3cccc(Br)c3)no2)cc1	-	broth dilution	320 µg/mL
CCCC(Cn1ccnc1)c1ccc(Cl)cc1	-	-	100 µg/mL
CCCCOc1ccc(NC(=O)OCC(O)CN2CCN(c3ccc(F)cc3)CC2)cc1	CCM 8186	-	780 µg/mL
Nn1c(SCC(O)(Cn2cncn2)c2ccc(Cl)cc2Cl)nnc1-c1ccc(F)cc1	ATCC 18804	broth dilution	>64 µg/mL
CCC(C)CC(C)CCCCCCCCC(=O)N[C@H]1C[C@@H](O)[C@H](NCCN)NC(=O)[C@@H]2[C@@H](O)CCN2C(=O)[C@H]([C@H](O)CCN)NC(=O)[C@H]([C@H](O)[C@@H](O)c2ccc(O)cc2)NC(=O)[C@@H]2C[C@@H](O)CN2C(=O)[C@H]([C@@H](C)O)NC1=O	CLY538	-	0.25 µg/mL
CCCCn1c(-c2ccccc2)nc(=S)c(C(=O)OCC)c1O	-	-	>100 µg/mL
CCCCCCCCOc1ccc(-c2ccc(C(=O)NC3CC(NCCN)CNC(=O)[C@@H]4[C@@H](O)[C@@H](C)CN4C(=O)[C@@H](CO)NC(=O)[C@H]([C@H](O)Cc4ccccc4)NC(=O)[C@@H]4C[C@@H](O)CN4C(=O)[C@H]([C@@H](C)O)NC3=O)cc2)cc1	98-17	-	0.5 µg/mL
O=C(/C(=C1/SCCN1c1ccc(Cl)cc1)n1ccnc1)c1ccc(Cl)cc1	-	-	>100 µg/mL
Nn1c(SCC(O)(Cn2cncn2)c2ccc(Cl)cc2Cl)nnc1-c1ccc(Cl)cc1Cl	IRFC 192	broth dilution	4 µg/mL
CCCCCC(Cn1ccnc1)c1ccccc1Br	-	-	10 µg/mL
Nn1c(SCC(O)(Cn2cncn2)c2ccc(Cl)cc2Cl)nnc1-c1ccc(Cl)cc1	IRFC 36	broth dilution	>64 µg/mL
CCCOc1ccc(NC(=O)OCC(O)CN2CCN(c3ccc(F)cc3)CC2)cc1	CCM 8186	-	390 µg/mL
Nn1c(SCC(O)(Cn2cncn2)c2ccc(F)cc2F)nnc1-c1cccc(Br)c1	IRFC 192	broth dilution	>64 µg/mL
CCCOc1ccc(NC(=O)OCC(O)CN2CCN(c3cccc(F)c3)CC2)cc1	CCM 8186	-	390 µg/mL
CCCCCCCCCCCCOC[n+]1cccc(NCn2nnc3ccccc32)c1	ATCC 10231	-	69.6 µM
CC(=O)OCCn1c(-c2ccccc2)nc(=S)c(C(C)=O)c1C	-	-	100 µg/mL
CCCCCCCCOC[n+]1cccc(NCn2cnc3ccccc32)c1	ATCC 10231	-	1242 µM
C[C@@H](n1ccnn1)[C@@](O)(Cn1cncn1)c1ccc(F)cc1F	TA	-	>100 µg/mL
C[C@H]1[C@H](O)[C@@H](C)/C=C/C=C/C=C/C=C/C=C/C=C/C=C/[C@H](O[C@@H]2O[C@H](C)[C@@H](O)[C@H](N)[C@@H]2O)C[C@@H]2O[C@](O)(C[C@@H](O)C[C@@H](O)CC[C@H](O)[C@@H](O)C[C@@H](O)CC(=O)O[C@H]1C)C[C@H](O)[C@H]2C(=O)O	ATCC 18804 and ATCC 28815 26555 24433 64544 64550	-	0.39–1.56 µg/mL
CCCCCCCC(Cn1ccnc1)c1ccccc1Cl	-	-	100 µg/mL
C[C@@H](c1nc(-c2ccc(C#N)cc2)cs1)[C@](O)(Cn1cncn1)c1ccc(F)cc1F	E81022	-	≤0.006 µg/mL
Cc1c(NC(=O)CSC(=S)N2CCCCC2C)c(=O)n(-c2ccccc2)n1C	ATCC 10231	-	12.5 µg/mL
CCCCCCCCCCCOC[n+]1cccc(NCn2nnc3ccccc32)c1	ATCC 10231	-	139 µM
COC(=O)C(C#N)C1C(=O)C(C)=C(C)C(=O)C1Sc1cccc(F)c1	Berkout KCCM 50235	-	50 µg/mL
CCCCCCC(Cn1ccnc1)c1c(Cl)cccc1Cl	-	-	10 µg/mL
CCOC(=O)C(=C1SCCCS1)n1ccnc1	-	-	>100 µg/mL
C[C@@H](n1ccnn1)[C@@](O)(Cn1cncn1)c1ccc(F)cc1	TA	-	>100 µg/mL
COC(=O)Nc1ccc2c(c1)c(C(C)=O)c(C)n2C(=O)OC	-	broth dilution	320 µg/mL
Cc1ccc(-c2nn(-c3ccccc3)cc2/C=N/n2c(=S)[nH]c3c(sc(=S)n3-c3ccccc3)c2=O)cc1	-	-	>200 µg/mL
CC(=O)c1c(O)n(Cc2ccccc2)c(-c2ccccc2)nc1=S	-	-	>100 µg/mL
Nn1c(SCC(O)(Cn2cncn2)c2ccc(F)cc2F)nnc1-c1ccc(O)cc1	ATCC 18804	broth dilution	>64 µg/mL
CCCCCCCOCn1c[n+](CNC(=O)c2cccnc2)c2ccccc21	ATCC 10231	-	1200 µM
Cc1ccc(-c2nn(-c3ccccc3)cc2/C=N/NC(=O)c2sc(=S)n(-c3ccc(C)cc3)c2N)cc1	-	-	>200 µg/mL
CC1CCS/C(=C(/C#N)n2cnc3ccccc32)S1	-	-	>100 µg/mL
O=C(Nc1nc2ccc(NC(=O)[C@@H]3CCC[C@@H](NCc4ccc5ccccc5c4)C3)cc2s1)C1CCCCC1	-	-	3.13 µM
CCCCCC(Cn1ccnc1)c1ccc(F)cc1	-	-	100 µg/mL
COc1cc(NC(C)CCCN)c2nc(C(C)(C)C)cc(C)c2c1Oc1cccc(C(F)(F)F)c1	-	-	20 µg/mL
CCOc1ccc2nc3cc(N=C4NC(=O)/C(=C\c5ccc([N+](=O)[O-])o5)S4)ccc3c(N)c2c1	ATCC 60193	broth dilution	62.5 µg/mL

Two numbers with a dash give a range or band. Blank or dashed fields: not listed here.